Reference: the supplement of paper PMC9931576
Human monoclonal antibodies against the spike receptor-binding domain (heavy:light variable regions). IC50 against pseudoviruses bearing the spike of naturally observed variants; lower = stronger; >10 µg/ml means not reached at the top dose. No active / inactive call. The stated detection limit is 0.0005 µg/ml; values near or below 0.001 µg/ml lie at the floor of the assay.

Assays:
Experiment in all cases: pseudovirus neutralization IC50; higher = weaker neutralization
[1] = molecular target: SARS-CoV-2 Omicron BA.1 spike pseudovirus
Protocol: (§1)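 Single-round VSV luciferase pseudovirus mixed with antibody dilutions for 1 h and put on Huh-7 cells for about a day; IC50 from the dose curve.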

[2] = molecular target: SARS-CoV-2 Omicron BA.2 spike pseudovirus
Protocol: as §1

[3] = molecular target: SARS-CoV-2 Omicron BA.2.75 spike pseudovirus
Protocol: as §1

[4] = molecular target: SARS-CoV-2 Omicron BA.5 spike pseudovirus
Protocol: as §1

[5] = molecular target: SARS-CoV-2 Omicron BQ.1.1 spike pseudovirus
Protocol: as §1

[6] = molecular target: SARS-CoV-2 Omicron XBB spike pseudovirus
Protocol: as §1

[7] = molecular target: SARS-CoV-2 early D614G spike pseudovirus
Protocol: as §1

Measured: pseudovirus neutralization IC50

B1: BD55-1132 (protein)
chain 1: EVQLVESGGGLVQPGGSLRLSCVASGFTFSNYDMHWVRQTAGKGLEWVSLIGTNGDTYYPDSVKGRFTISRDNAKNSLYLQMSSLRAGDTAVYFCVRVQYYYPSGESFPIYYGLDVWGQGTTVIVSS
chain 2: DIQMTQSPSSLSVSVGDRVTITCRASQTIRTYLNWYQQKPGKAPKLLIYAASTLQSGVPPRFSGSGSGTEFTLTISSLQPEDFATYYCQQTYIIPPEDSFGQGTKLQIK
> 10 µg/mL: all assays above

B2: BD55-5961 (protein)
chain 1: EVQLVESGGGLVKPGGSLRLSCAASGFSFSTYSMYWVRQAPGKGLEWVACLSSSGSLIFYADSVKGRFSISRDNAKNSLYLQMNSLRAEDTAVYYCARESDMPRGVDFDYWGQGTLVAVSS
chain 2: DIQMTQSPSSLSASVGDRVTITCRASQSIGNYLNWYQQKPGKAPKLLIYAASSLQSGVPSRFSGSGSGTDFTLTISSLQPEDFATYYCQQGYSTPGVTFGPGTKVDIK
> 10 µg/mL: all assays above

B3: BD55-5956 (protein)
chain 1: QVQLVQSGAEVKKPGASVKVSCKASGYTFNSYDINWVRQATGQGLQWMGWMNPNSGNTGYAHKFQGRLTMTRNTSISTAYMELSGLRSEDTAVYYCAIVTMVRGAIDYFQYGMDVWGQGTTVTVSS
chain 2: DIQMTQSPSSLSASVGDRVTITCRASQSISYYLNWYQQKPGKAPKLLIYGASSLQSGVPSRFSGSGSGTDFTLTIRSLQPEDFATYSCQQSYSTPYNFGQGTKVEI
> 10 µg/mL: all assays above

B4: BD55-5946 (protein)
chain 1: QDQLVQSGAEVKRPGSSVKVSCKTSGATFNNFAISWVRQAPGQGLEWMGRIIPILGIANYAQNFQDRVTIIADRSTSTAFLELSSLRSDDTAVYYCARGDGDYSMNYYYYHGMDLWGHGTTVTVSS
chain 2: QSVLTQPPSVSAAPGQKVTISCSGSSSNIGNNYVSWYQQLPGTAPKLLISDNNKRPSGIPDRFSGSKSGTSATLGITGLQTGDEAHYYCGTWDTSLSVGVFGGGTKLTVL
> 10 µg/mL: all assays above

B5: BD55-5965 (protein)
chain 1: QVQLVQSGAEVKKPGASVKVSCKASGYSFTSYDINWVRQGTGQGLEWMGWMNPNSGKTDYAHKFQGRVTMTRNTSISTAYMEMSSLRSEDTAVYYCAITYQLPLSHYYYAMDVWGQGTTVTVSS
chain 2: DIQMTQSPSSLSASVGDRVTITCRASQSISTYLNWYQQKPGKAPNLLIYDASSLQGGVPSRFSGRGSGTDFTLTISSVQPEDFAIYYCQQSYSFPSAFGQGTRVEIK
> 10 µg/mL: all assays above

B6: BD55-5959 (protein)
chain 1: EVQLVESGGGLVQPGRSLRLSCAASGFTFGDYAMHWVRQAPGKGLEWVSGISWNSGDIGYADSVKGRFTISRDNAKNSLYLQMNSLRAEDTAFYYCVKDMGYGDLTYYYGMDVWGQGTTVTVSS
chain 2: QSALTQPASVSGSPGQSITISCTGISSDVGSYNLVSWYQHYPGKAPKLMIYEGNKRPSGVSNRFSGSESGNTASLTISGLQAEDEADYFCCSYAGNSTRVFGGGTKLTVL
> 10 µg/mL: all assays above
